This is an account of results in US10407455B2, “Phillygenin glucuronic acid derivative as well as preparation method and application thereof” (priority 2015, dated 2019).

Molecules are shown by their SMILES.

The test system of one assay is influenza virus. The arrangement: species or system Kunming mice. Conditions: mouse, in vivo.
The subject of the next assay is parainfluenza virus. In kind it is in vivo, Kunming mice. Conditions: mice infected with parainfluenza virus, treated 5 days, different concentrations, P<0.01.

As to `COc1cc(C2OCC3C(c4ccc(OC5OC(C(=O)O)C(O)C(O)C5O)c(OC)c4)OCC23)ccc1O` (centres unmarked) [Compound I], the “lung tissue virus hemagglutination titers compared with the infection model group (in words)” value with influenza virus and in the assay with parainfluenza virus was “slightly decreased” in each case.
